Anti-infective test results gathered from many reports (values: NIAID ChemDB through PubChem).

All rows: cytotoxicity tests; cell line: Vero mammalian cells; method: MTT; endpoint: CC50

CCn is the concentration with n% toxicity to the cells. Rows are shuffled and stem from different studies.

SMILES | result
C[C@H]1COc2c(N3CCC(n4c(=O)[nH]c5cc(Cl)ccc54)CC3)c(F)cc3c(=O)c(C(=O)O)cn1c23 | >122 µM
O=C(O)c1c(=O)c2cc(F)c(N3CCC(N4CCCCC4)CC3)cc2n2c1sc1ccccc12 | 130.3 µM
CC(C)(C)n1cc(C(=O)O)c(=O)c2cc([N+](=O)[O-])c(N3CCC(O)(c4ccc(Cl)cc4)CC3)cc21 | >117.5 µM
O=C(O)c1c(=O)c2cc(F)c(N3CCN(C(=O)C4COc5ccccc5O4)CC3)cc2n2c1sc1ccccc12 | 111.7 µM
O=C(O)c1cn(C2CC2)c2cc(N3CCC(N4CCCCC4)CC3)c(F)cc2c1=O | >151.1 µM
COc1c(N2CC(C)OC(C)C2)c(F)c([N+](=O)[O-])c2c(=O)c(C(=O)O)cn(C3CC3)c12 | 144 µM
C[C@H]1COc2c(N3CCC4(CC3)OCCO4)c(F)cc3c(=O)c(C(=O)O)cn1c23 | 155 µM
COc1c(N2CCNC(C)C2)c(F)cc2c(=O)c(C(=O)O)cn(C3CC3)c12 | >155.3 µM
O=C(O)c1c(=O)c2cc([N+](=O)[O-])c(N3CCC4(CC3)OCCO4)cc2n2c1sc1ccccc12 | 129.8 µM
COc1c(N2CCN(C(=O)C3COc4ccccc4O3)CC2)c(F)c([N+](=O)[O-])c2c(=O)c(C(=O)O)cn(C3CC3)c12 | 110 µM
O=C(O)c1c(=O)c2cc(F)c(N3CCN(Cc4ccc5c(c4)OCO5)CC3)cc2n2c1sc1ccccc12 | >117.6 µM
CC(C)(C)n1cc(C(=O)O)c(=O)c2cc(F)c(N3CCN(Cc4ccc5c(c4)OCO5)CC3)cc21 | 129.8 µM
COc1c(N2CCn3cc(C(=O)O)nc3C2)c(F)cc2c(=O)c(C(=O)O)cn(C3CC3)c12 | 141 µM
COc1cc2c(cc1OC)CN(c1c(F)c([N+](=O)[O-])c3c(=O)c(C(=O)O)cn4c3c1OCC4C)CC2 | 62.5 µM
O=C(O)c1cn(C2CC2)c2cc(N3CC(c4ccccc4)NC(c4ccc(Cl)cc4)C3)c(F)cc2c1=O | >117.5 µM
COc1c(N2COCC2(C)C)c(F)cc2c(=O)c(C(=O)O)cn(C3CC3)c12 | 166 µM
O=C(O)c1c(=O)c2cc([N+](=O)[O-])c(N3CCN(C(c4ccccc4)c4ccc(Cl)cc4)CC3)cc2n2c1sc1ccccc12 | 50 µM
CC(C)(C)n1cc(C(=O)O)c(=O)c2cc([N+](=O)[O-])c(N3CCC(n4c(=O)[nH]c5cc(Cl)ccc54)CC3)cc21 | >117.5 µM
O=C(O)c1c(=O)c2cc([N+](=O)[O-])c(N3CCC(N4CCCCC4)CC3)cc2n2c1sc1ccccc12 | 61.7 µM
COc1c(N2CCSCC2)c(F)cc2c(=O)c(C(=O)O)cn(C3CC3)c12 | 165.6 µM
CC1COc2c(N3CCN(Cc4ccc5c(c4)OCO5)CC3)c(F)c([N+](=O)[O-])c3c(=O)c(C(=O)O)cn1c23 | 119 µM
CCN(CC)C(=O)C1CCCN(c2cc3c(cc2[N+](=O)[O-])c(=O)c(C(=O)O)cn3C(C)(C)C)C1 | 140 µM

3 of the rows above, restated:

| SMILES | result |
|---|---|
| CCN(CC)C(=O)C1CCCN(c2cc3c(cc2[N+](=O)[O-])c(=O)c(C(=O)O)cn3C(C)(C)C)C1 | 140 µM |
| O=C(O)c1c(=O)c2cc(F)c(N3CCN(Cc4ccc5c(c4)OCO5)CC3)cc2n2c1sc1ccccc12 | >117.6 µM |
| C[C@H]1COc2c(N3CCC4(CC3)OCCO4)c(F)cc3c(=O)c(C(=O)O)cn1c23 | 155 µM |